The subject of this experiment is P. aeruginosa. The settings on record: 10,000 ppm thorium, defined medium.

Effect on growth data for 1 substance are collected here from patent publication US4780238A (priority 1985, dated 1988).

For thorium nitrate, the effect on growth result is “an extended lag period followed by reduction in growth”.
